Results of unrelated studies side by side (data: NIAID ChemDB).

Shared fields: growth or infection tests

Zone: diameter of growth inhibition. Blank or dashed fields: not listed here. a–b is a range or a potency band. Lines come from different laboratories, so protocols vary. Percent inhibition refers to the dose given; in toxicity tests it is the harm to the cells. MIC50, MIC90 and the like: level of inhibition, or share of isolates inhibited.

compound	mutations	dose	measure	conditions	agent	read by	strain	value
O=C1S/C(=C\c2cccs2)C(=O)N1CC(O)(Cn1nccn1)c1ccc(F)cc1F	-	-	MIC	-	Aspergillus glaucus	-	-	>100 µg/mL
c1ccc(C2=NN(c3ccccc3)C(c3ccc(OCCCCCCOc4ccc(C5CC(c6ccccc6)=NN5c5ccccc5)cc4)cc3)C2)cc1	-	-	MIC	-	Aspergillus janus	broth dilution	-	16 µg/mL
O=C(NN1C(=O)CSC1C1C(c2ccccc2)=Nc2ccc(Cl)cc21)N1c2ccccc2C=Cc2ccccc21	-	750 µg/mL	zone	-	Aspergillus oryzae	agar diffusion	MTCC-3567	11 mm
CCCCCCCCOC(=O)[C@]1(O)C[C@@H](O)[C@@H](O)[C@H](OC(=O)/C=C/c2ccc(O)c(O)c2)C1	-	-	MIC80	-	Aspergillus flavus	absorbance	AMP 9	2700 µM
O=C(/C=C/c1ccc(OCCCOc2ccc(/C=C/C(=O)c3ccccc3)cc2)cc1)c1ccccc1	-	-	MIC	-	Aspergillus janus	broth dilution	-	8 µg/mL
COc1ccc(-c2n[nH]c(COc3ncnc4ccccc34)n2)cc1OC	-	-	MIC100	-	Aspergillus flavus	-	MTCC 277	12.5 µg/mL
Cc1coc2c1C(=O)[C@@H]1[C@@](C)(C2)[C@H](O)CC[C@@]1(C)O	-	-	MIC	-	Aspergillus spp.	broth dilution	ATCC 293	>256 µg/mL
c1ccc(-c2ccc(C(c3ccccc3)n3ccnc3)cc2)cc1	-	-	MFC	-	Aspergillus versicolor	broth dilution	ATCC 11730	200 µg/mL
Cc1nc(OCc2nc(-c3ccc(Br)cc3)n[nH]2)c2ccccc2n1	-	-	MIC100	-	Aspergillus flavus	-	MTCC 277	25 µg/mL
Cc1coc2c1C(=O)[C@@H]1[C@](C)([C@H](O)CC[C@@]1(C)O)[C@@H]2O	-	-	MIC	-	Aspergillus spp.	broth dilution	ATCC 293	>256 µg/mL
CCN=C1NN(C(=O)Cc2cc(=O)oc3cc(O)ccc23)C(c2c(O)c3ccccc3oc2=O)=CS1	-	-	MIC50	-	Aspergillus ochraceus	broth dilution	-	0.1 µg/mL
O=C1S/C(=C\c2ccc3ccccc3n2)C(=O)N1CC(O)(Cn1nccn1)c1ccc(F)cc1F	-	-	MIC	-	Aspergillus glaucus	-	-	>100 µg/mL
CN=C1NN(C(=O)Cc2cc(=O)oc3cc(O)ccc23)C(c2cc3ccccc3oc2=O)=CS1	-	-	MIC50	-	Aspergillus ochraceus	broth dilution	-	0.1 µg/mL
COc1cc(/C=C/C(C)=O)ccc1O	-	-	MIC	-	Aspergillus oryzae	broth dilution	MTCC 262	937 µM
c1ccc(C2=NN(c3ccccc3)C(c3ccc(OCCCCCCCCCCCCOc4ccc(C5CC(c6ccccc6)=NN5c5ccccc5)cc4)cc3)C2)cc1	-	-	MIC	-	Aspergillus janus	broth dilution	-	16 µg/mL
CCN=C1NN(C(=O)c2cc(=O)oc3cc(OCC)ccc23)C(c2c(O)c3ccccc3oc2=O)=CS1	-	-	MIC50	-	Aspergillus ochraceus	broth dilution	-	0.1 µg/mL
Cc1ccc(S(=O)(=O)CNc2oc3[nH]c(=O)[nH]c(=O)c3c2-c2ccsc2C=O)cc1	-	50 µg/mL	zone	-	Aspergillus oryzae	agar diffusion / agar	-	14 mm
CN(C)c1ccc(/C=C2\SC(=O)N(CC(O)(Cn3nccn3)c3ccc(F)cc3F)C2=O)cc1	-	-	MIC	-	Aspergillus glaucus	-	-	>100 µg/mL
Cc1ccc2c(c1)C(C=NNC(=O)N1c3ccccc3C=Cc3ccccc31)C(c1ccccc1)=N2	-	1000 µg/mL	zone	-	Aspergillus oryzae	agar diffusion	MTCC-3567	14 mm
N#Cc1ccc(/C=C2\SC(=O)N(CC(O)(Cn3nccn3)c3ccc(F)cc3F)C2=O)cc1	-	-	MIC	-	Aspergillus glaucus	-	-	>100 µg/mL
c1ccc(C2=NN(c3ccccc3)C(c3ccc(OCCCOc4ccc(C5CC(c6ccccc6)=NN5c5ccccc5)cc4)cc3)C2)cc1	-	-	MIC	-	Aspergillus janus	broth dilution	-	8 µg/mL
Cc1cc(O)c2c(c1)C(=O)c1cc(O)c(O)c(O)c1C2=O	cclA delta mdpG delta	-	MIC100	-	Aspergillus nidulans	visual reading	-	142–284 µM
CO[C@@]12OC(=O)C(C)=C1C1=C3[C@](C)([C@@H]4C[C@@H]4[C@@]3(O)C[C@@H]3[C@]14OC(=O)C1=C4C[C@H]4[C@](O)(COC(=O)/C(C)=C/COC(=O)CCC(=O)OC1)[C@H]1C[C@H]1[C@]34C)[C@H]2O	-	-	MIC	-	Aspergillus spp.	broth dilution	ATCC 293	>256 µg/mL
OO	mpkC deletion	-	MIC99	-	Aspergillus fumigatus	agar	-	4000 µM
C[C@@H](c1ncncc1F)[C@](O)(Cn1cncn1)c1ccc(F)cc1F	-	-	MIC	-	Aspergillus terreus	broth dilution	CBS 594.65	1 µg/mL
FC(F)(F)c1nc(OCc2nc(-c3ccco3)n[nH]2)c2ccccc2n1	-	-	MIC100	-	Aspergillus flavus	-	MTCC 277	12.5 µg/mL
CCCCCOc1ccc(-c2ccc(-c3ccc(C(=O)N[C@H]4C[C@@H](O)[C@@H](O)NC(=O)[C@@H]5[C@@H](O)[C@@H](C)CN5C(=O)[C@H]([C@H](C)O)NC(=O)[C@H]([C@H](O)[C@@H](O)c5ccc(O)cc5)NC(=O)[C@@H]5C[C@@H](O)CN5C(=O)[C@H]([C@H](C)O)NC4=O)cc3)cc2)cc1	-	-	MEC	-	Aspergillus fumigatus	-	Isolate AF65	0.003 µg/mL
CC1=C2C3=C4[C@](C)([C@@H]5C[C@@H]5[C@@]4(O)C[C@@H]4[C@]35OC(=O)C3=C5C[C@H]5[C@](O)(COC(=O)/C(C)=C/COC(=O)CCC(=O)OC3)[C@H]3C[C@H]3[C@]45C)[C@H](O)[C@]2(O)OC1=O	-	-	MIC	-	Aspergillus spp.	broth dilution	ATCC 293	>256 µg/mL
CC(C)=CCC[C@@H](C)CC=O	-	-	MIC	-	Aspergillus parasiticus	broth dilution	TISTR 3018	4050 µg/mL
Nc1ncccc1-c1cc(Cc2ccc(COc3ccccn3)cc2)no1	-	-	MIC50	10% human serum	Aspergillus flavus	broth dilution	IFM50915	0.25 µg/mL
O=C(NN=CC1C(c2ccccc2)=Nc2ccccc21)N1c2ccccc2C=Cc2ccccc21	-	1000 µg/mL	zone	-	Aspergillus oryzae	agar diffusion	MTCC-3567	13 mm
CCOc1ccc2c(C(=O)N3NC(=NC)SC=C3c3c(O)c4ccccc4oc3=O)cc(=O)oc2c1	-	-	MIC50	-	Aspergillus ochraceus	broth dilution	-	0.1 µg/mL
NC(=S)NN=Cc1cccs1	-	-	MIC	-	Aspergillus parasiticus	broth dilution	MCT 00334	125 µg/mL
Cc1ccc(C(C)C)cc1	-	-	MLC	-	Aspergillus fumigatus	-	F17	>20 µg/mL
C[C@@H](c1ncncc1F)[C@](O)(Cn1cncn1)c1ccc(F)cc1F	-	-	MIC50	-	Aspergillus niger	broth dilution	-	2 µg/mL
NC(=S)N/N=C(/C=C/c1ccccc1)c1ccccc1	-	-	MIC	-	Aspergillus parasiticus	broth dilution	MCT 00334	500 µg/mL
C[C@@H](c1nc(-c2ccc(C#N)cc2)cs1)[C@](O)(Cn1cncn1)c1cc(F)ccc1F	-	-	MIC50	-	Aspergillus lentulus	broth dilution	-	0.25 µg/mL
Cc1ccc(S(=O)(=O)CNc2oc3[nH]c(=O)[nH]c(=O)c3c2-c2ccc([N+](=O)[O-])cc2)cc1	-	100 µg/mL	zone	-	Aspergillus oryzae	agar diffusion / agar	-	22 mm
O=c1oc2ccccc2cc1C1=NN/C(=N\Br)SC1	-	-	MIC50	-	Aspergillus ochraceus	broth dilution	-	0.01 µg/mL
Cc1ccc(S(=O)(=O)CNc2oc3[nH]c(=O)[nH]c(=O)c3c2-c2ccc(F)cc2)cc1	-	50 µg/mL	zone	-	Aspergillus oryzae	agar diffusion / agar	-	18 mm
O=C(/C=C/c1ccc(OCCCCOc2ccc(/C=C/C(=O)c3ccccc3)cc2)cc1)c1ccccc1	-	-	MIC	-	Aspergillus janus	broth dilution	-	8 µg/mL
CCC(C)n1ncn(-c2ccc(N3CCN(c4ccc(OC[C@H]5CO[C@](Cn6cncn6)(c6ccc(Cl)cc6Cl)O5)cc4)CC3)cc2)c1=O	mpkC	4 µg/mL	inhibition	-	Aspergillus fumigatus	broth dilution	AF293	99.72%
CC(=O)N1CCN(c2ccc(OC[C@H]3CO[C@](Cn4ccnc4)(c4ccc(Cl)cc4Cl)O3)cc2)CC1	-	-	MIC50	-	Aspergillus spp.	-	Species complex	1 µg/mL
c1ccc(C2=NN(c3ccccc3)C(c3ccc(OCCCCOc4ccc(C5CC(c6ccccc6)=NN5c5ccccc5)cc4)cc3)C2)cc1	-	-	MIC	-	Aspergillus janus	broth dilution	-	16 µg/mL
FC(F)(F)c1nc(OCc2nc(-c3cccs3)n[nH]2)c2ccccc2n1	-	-	MIC100	-	Aspergillus flavus	-	MTCC 277	25 µg/mL

Repeating the final 4 entries:

compound | mutations | dose | measure | conditions | agent | read by | strain | value
CCC(C)n1ncn(-c2ccc(N3CCN(c4ccc(OC[C@H]5CO[C@](Cn6cncn6)(c6ccc(Cl)cc6Cl)O5)cc4)CC3)cc2)c1=O | mpkC | 4 µg/mL | inhibition | - | Aspergillus fumigatus | broth dilution | AF293 | 99.72%
CC(=O)N1CCN(c2ccc(OC[C@H]3CO[C@](Cn4ccnc4)(c4ccc(Cl)cc4Cl)O3)cc2)CC1 | - | - | MIC50 | - | Aspergillus spp. | - | Species complex | 1 µg/mL
c1ccc(C2=NN(c3ccccc3)C(c3ccc(OCCCCOc4ccc(C5CC(c6ccccc6)=NN5c5ccccc5)cc4)cc3)C2)cc1 | - | - | MIC | - | Aspergillus janus | broth dilution | - | 16 µg/mL
FC(F)(F)c1nc(OCc2nc(-c3cccs3)n[nH]2)c2ccccc2n1 | - | - | MIC100 | - | Aspergillus flavus | - | MTCC 277 | 25 µg/mL